PubChem BioAssay AID1224833 – University of Georgia, 2016

Assay: 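Host factors restraining rotavirus as candidate antiviral genes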 (primary screen)
System: monkey MA104 kidney cells
Knock-down reagent: siRNA pool against human genes, 50 nM
Timing: 48 h knock-down before infection; read 24 h after infection
Conditions: infection with rotavirus strain RV3 two days after transfection; infectious dose for this stage not given
Read-out: 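Rotavirus antigen per well by fluorescent immunoassay, normalised to non-targeting control wells on each plate and given as a standard z-score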
Reading the numbers: z-score vs non-targeting control: higher = more rotavirus replication than with non-targeting control
Call rule: In these data the active calls have z-score vs non-targeting control at about -1 or lower, or at about 1 or higher
Meaning of the calls: active = z-score beyond 1 either way; inactive = z-score within 1 of zero
Here is a random part of about 12,000 deposited reagents. Of all reagents, about 5,600 (46%) are marked active. 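Active calls cover z-scores past 1 in both directions, so they include lowered as well as raised rotavirus replication.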

ATG4C → z-score vs non-targeting control = 0.922; Call = inactive
SUN2 → z-score vs non-targeting control = 0.324; Call = inactive
OR1E1 → z-score vs non-targeting control = -0.36; Call = inactive
MRPS18A → z-score vs non-targeting control = -0.575; Call = inactive
CAPN15 → z-score vs non-targeting control = 0.687; Call = inactive
SH3GLB2 → z-score vs non-targeting control = -0.322; Call = inactive
CABP5 → z-score vs non-targeting control = -1.89; Call = active
AWAT1 → z-score vs non-targeting control = -0.112; Call = inactive
PIK3R6 → z-score vs non-targeting control = -1.5; Call = active
RAB32 → z-score vs non-targeting control = -0.89; Call = inactive

Part of the list above, reformatted:
target gene	z-score vs non-targeting control	Call
SH3GLB2	-0.322	inactive
CABP5	-1.89	active
AWAT1	-0.112	inactive

Next results follow:
SERPINB11 → z-score vs non-targeting control = 1.35; Call = active
CXCL6 → z-score vs non-targeting control = -0.013; Call = inactive
PGM2 → z-score vs non-targeting control = 0.573; Call = inactive
RAB27A → z-score vs non-targeting control = -0.725; Call = inactive
UNC13B → z-score vs non-targeting control = -1.82; Call = active
POLG → z-score vs non-targeting control = 1.68; Call = active
THBS3 → z-score vs non-targeting control = -0.79; Call = inactive
KRTAP4-2 → z-score vs non-targeting control = 1.52; Call = active
MLXIP → z-score vs non-targeting control = -1.6; Call = active
